{"source": "patent US20110230558A1", "about": "(priority 2008, published 2011)", "origin": "cited, not measured here", "system": "Escherichia coli 0157H7", "conditions": "cited from earlier work", "data": [{"substance": "ethyl ester of the lauramide of the arginine monohydrochloride [LAE]", "values": [{"measurement": "M.I.C.", "value": 20, "unit": "ppm"}]}]}
